Measurements as given in US20250213569A1, “METHODS AND COMPOSITIONS FOR MEASURING AND INHIBITING EXONUCLEASE ACTIVITY” (priority 2020, published 2025).

Target: SARS-CoV NSP14/NSP10 complex (Severe acute respiratory syndrome coronavirus (SARS-CoV), UniProt P0C6X7)
Type: biochemical

**Q.** CC(C)=CCc1c(O)ccc(C(=O)/C=C/c2ccc(O)cc2)c1O [Compound 77, Isobavachalcone] was tested. Which IC50 did it give?
**A.** 15 µM
